Compound potency records, mixed from different reports. Data source: NIAID ChemDB in PubChem.

Shared fields: host cell toxicity; cell line: MT-4; read-out: CC50

Rows are shuffled and stem from different studies. CCn: concentration that lowers growth or viability of the cells by n%. An empty or dashed field is not shown.

| smiles | read by | result |
|---|---|---|
| CN[C@@H]1[C@H](O[C@@H]2OC[C@@H](O)[C@H](O)[C@H]2O)[C@@H](O)[C@H](O[C@H]2c3cc(C)c(C(=O)N[C@@H](C)C(=O)O)c(O)c3-c3c(cc4c(c3O)C(=N)c3cc(OC)cc(O)c3C4=O)[C@H]2O)O[C@@H]1C | - | >30 µg/mL |
| CCOCn1c(Cc2ccccc2)c(C(C)C)c(=O)[nH]c1=O | MTT | >100 µM |
| CCCCCCCCCCCCCCCCCCCCCCOCCCO[C@@H]1O[C@H](COS(=O)(=O)O)[C@@H](O[C@@H]2O[C@H](COS(=O)(=O)O)[C@H](OS(=O)(=O)O)[C@H](OS(=O)(=O)O)[C@H]2OS(=O)(=O)O)[C@H](OS(=O)(=O)O)[C@H]1OS(=O)(=O)O | - | >100 µg/mL |
| CC(C)=CCN1Cc2cccc3[nH]c(=O)n(c23)CC1C | - | >870 µM |
| C=CS(=O)(=O)N1CCC(NS(=O)(=O)c2c(C(N)=O)[nH]c3ccc(Br)cc23)C1 | MTT | 22 µM |
| CC(C)[C@H](NC(=O)OCc1ccccc1)C(=O)N[C@@H](Cc1ccccc1)[C@@H](O)[C@@H](NCc1ccccc1)C(=O)N[C@H](C(=O)NCc1nc2ccccc2[nH]1)C(C)C | - | 6 µM |
| O=S(=O)(O)c1cc(S(=O)(=O)O)c2cc(NS(=O)(=O)c3ccc(-c4ccc(S(=O)(=O)Nc5ccc6cc(S(=O)(=O)O)cc(S(=O)(=O)O)c6c5)cc4)cc3)ccc2c1 | - | 47 µM |
| CN(C)CC(=O)N1CCn2c(nc(C(=O)NCc3ccc(F)cc3)c(O)c2=O)C1(C)C | microscopy | >1 µM |
| CCCCCCCCCCCCCCCCCC(=O)N[C@@H](CO[C@@H]1O[C@H](COS(=O)(=O)O)[C@@H](OS(=O)(=O)O)[C@H](OS(=O)(=O)O)[C@H]1OS(=O)(=O)O)C(=O)NCCCCCCCCCCCCCC | - | <100 µg/mL |
| Cc1ccc(S(=O)(=O)Sc2nnc(CNC(=O)COc3ccc4ccccc4c3)n2-c2ccccc2)cc1 | MTT | >12.7 µg/mL |
| O=C(O)/C=C/c1ccc(O)c(O)c1 | - | 88 µg/mL |
| COC(=O)N[C@H](C(=O)NN(CC[C@@]1(Cc2ccccc2)C(=O)N(C2c3ccccc3C[C@H]2O)C[C@H]1O)Cc1ccc(-c2cccnc2)cc1)C(C)(C)C | XTT | 31 µM |
| O=CC1OC(=O)c2cc(O)c(O)c(O)c2Oc2cc3c(c(O)c2O)-c2c(cc(O)c(O)c2O)C(=O)OCC2OC(OC(=O)c4cc(O)c(O)c(O)c4Oc4cc5c(c(O)c4O)-c4c(cc(O)c(O)c4O)C(=O)OC(C(O)COC5=O)C1OC(=O)c1cc(O)c(O)c(O)c1)C(OC(=O)c1cc(O)c(O)c(O)c1)C(OC(=O)c1cc(O)c(O)c(O)c1)C2OC3=O | - | 74.3 µg/mL |
| O=C(COc1ccc2ccccc2c1)NCc1n[nH]c(=S)n1Cc1ccccc1 | MTT | 28.5 µg/mL |
| CN1CCn2c(nc(C(=O)NCc3ccc(F)cc3)c(O)c2=O)C(NS(C)(=O)=O)C1 | microscopy | >1 µM |
| C#C[C@]1(CO)O[C@@H](n2cc(Br)c3c(N)ncnc32)C[C@@H]1O | ATP / luminescence | >8.4 µM |
| Cc1ccc(-c2c(C)c3c(c(C)c2[C@H](OC(C)(C)C)C(=O)O)N(S(C)(=O)=O)Cc2cc(F)ccc2-3)cc1 | MTT | 19 µM |
| Cn1ccc(CN2CCn3c(nc(C(=O)NCc4ccc(F)cc4)c(O)c3=O)C23CC3)n1 | microscopy | >1 µM |
| C#C[C@]1(CO)O[C@@H](c2cnc3c(N)ncnn23)C[C@@H]1O | ATP / luminescence | >8.4 µM |
| O=C(OC[C@H]1O[C@@H](OC(=O)c2cc(O)c(O)c(O)c2)[C@H](OC(=O)c2cc(O)c(O)c(O)c2)[C@@H](O)[C@@H]1O)c1cc(O)c(O)c(O)c1 | - | 29.7 µg/mL |
| O=C(O)c1cc(O)ccc1O | - | 72 µg/mL |
| CCC(C)Sc1nc(C2(c3c(F)cccc3F)CC2)c(C)c(=O)[nH]1 | MTT | 20 µM |
| CC(C)c1c(Cc2ccccc2)n(COCCOc2ccccc2)c(=O)[nH]c1=O | MTT | 35 µM |
| O=C(NCc1ccc(F)cc1)c1nc2n(c(=O)c1O)CCNC2 | microscopy | >1 µM |
| O=C(COc1ccc2ccccc2c1)NCC(=O)NNC(=S)Nc1ccccc1 | MTT | ≥67.9 µg/mL |
| C#C[C@]1(CO)O[C@@H](c2ccc3c(N)ncnn23)C[C@@H]1O | ATP / luminescence | >8.4 µM |
| CC(C)[C@H](NC(=O)CCc1nc2ccccc2[nH]1)C(=O)N[C@@H](Cc1ccccc1)[C@@H](O)[C@@H](NCc1ccccc1)C(=O)N[C@H](C(=O)NCc1ccccc1)C(C)C | - | 14.8 µM |
| O=C(Cc1ccccn1)NNC(=S)Nc1cccc(Br)c1 | MTT | >100 µM |
| O=C(NNc1ccn([C@H]2CC[C@@H](CO)O2)c(=O)n1)c1ccccc1O | - | >100 µM |
| S=c1[nH]nc(Cc2ccccn2)n1-c1cccc(Cl)c1 | MTT | >100 µM |
| CCCCCCCCCCCCCCCCCC(=O)N[C@@H](CO[C@@H]1O[C@H](COS(=O)(=O)O)[C@H](OS(=O)(=O)O)[C@H](OS(=O)(=O)O)[C@H]1OS(=O)(=O)O)C(=O)NCCCCCCCCCCCCCC | - | <100 µg/mL |
| CC(C)[C@H](NC(=O)[C@H](NCc1ccc(Cl)cc1)[C@H](O)[C@H](Cc1ccccc1)NC(=O)[C@@H](NC(=O)OCc1ccccc1)C(C)(C)C)C(=O)NCc1nc2ccccc2[nH]1 | - | 5.6 µM |
| CCc1c(Cc2cc(OC)cc(OC)c2)[nH]c(=S)[nH]c1=O | MTT | >100 µM |
| O=C(Cc1ccccn1)NNC(=S)Nc1ccc(Cl)c(Cl)c1 | MTT | >100 µM |
| O=C(O)CCc1ccc(O)c(O)c1 | - | 91 µg/mL |
| CCOCn1c(Cc2cc(OC)cc(OC)c2)c(C(C)C)c(=O)[nH]c1=O | MTT | >100 µM |
| C#C[C@]1(CO)O[C@@H](n2ccc3c(N)nc(F)nc32)C[C@@H]1O | ATP / luminescence | >8.4 µM |
| CC(=O)N1Cc2ccccc2-c2c(C)c(-c3ccc(C)cc3)c([C@H](OC(C)(C)C)C(=O)O)c(C)c21 | MTT | 21 µM |
| Cc1cc(O)ccc1O | - | 127 µg/mL |
| COC(=O)N[C@H](C(=O)NN(CC[C@@]1(Cc2ccccc2)C(=O)N(C2c3ccccc3C[C@H]2O)C[C@H]1O)Cc1ccc(Br)cc1)C(C)(C)C | XTT | 31 µM |
| COC(=O)[C@H](C)NP(=O)(OC[C@@H]1C=C[C@H](n2cc(C)c(=O)[nH]c2=O)O1)Oc1ccccc1 | - | >100 µM |
| O=C[C@H](OC(=O)c1cc(O)c(O)c(O)c1)[C@@H](OC(=O)c1cc(O)c(O)c(O)c1)[C@@H]1OC(=O)c2cc(O)c(O)c(O)c2-c2c(cc(Oc3c(C(=O)O[C@@H]4O[C@@H]5COC(=O)c6cc(O)c(O)c(O)c6-c6c(cc(O)c(O)c6O)C(=O)O[C@H]5[C@H](OC(=O)c5cc(O)c(O)c(O)c5)[C@H]4OC(=O)c4cc(O)c(O)c(O)c4)cc(O)c(O)c3O)c(O)c2O)C(=O)OC[C@H]1O | - | 30.6 µg/mL |
| CCc1c(CC2CCCc3ccccc32)n(COCC=C(C)C)c(=O)[nH]c1=O | MTT | 30 µM |
| CNC(=O)c1nc([C@]2(C)CSC([C@]3(C)CSC([C@]4(C)CSC(/C=C/c5ccccc5)=N4)=N3)=N2)oc1C | - | 46.5 µM |
| O=C(OC1OC2COC(=O)c3cc(O)c(O)c(O)c3-c3c(cc(O)c(O)c3O)C(=O)OC2C(OC(=O)c2cc(O)c(O)c(O)c2)C1OC(=O)c1cc(O)c(O)c(O)c1)c1cc(O)c(O)c(O)c1 | - | 29 µg/mL |
| Fc1ccc(Nc2nnc(Cc3ccccn3)s2)cc1Cl | MTT | >100 µM |
| O=C1OCC(O)C(C2OC(=O)c3cc(O)c(O)c(O)c3-c3c(O)c(O)c(O)c4c3C(=O)OC2C4c2c(O)cc(O)c3c2OC(c2ccc(O)c(O)c2)C(O)C3)OC(=O)c2cc(O)c(O)c(O)c2-c2c1cc(O)c(O)c2O | - | 46 µg/mL |
| CCCCCCCCCCCCOCCO[C@@H]1O[C@H](COS(=O)(=O)O)[C@@H](O[C@@H]2O[C@H](COS(=O)(=O)O)[C@H](OS(=O)(=O)O)[C@H](OS(=O)(=O)O)[C@H]2OS(=O)(=O)O)[C@H](OS(=O)(=O)O)[C@H]1OS(=O)(=O)O | - | >100 µg/mL |
| O=C(O[C@@H]1[C@H](c2c(O)cc(O)c3c2O[C@H](c2ccc(O)c(O)c2)[C@H](OC(=O)c2cc(O)c(O)c(O)c2)C3)c2c(O)cc(O)c([C@H]3c4c(O)cc(O)cc4O[C@H](c4ccc(O)c(O)c4)[C@@H]3OC(=O)c3cc(O)c(O)c(O)c3)c2O[C@@H]1c1ccc(O)c(O)c1)c1cc(O)c(O)c(O)c1 | - | 60.6 µg/mL |
| C#C[C@]1(CO)O[C@@H](n2cc(Cl)c3c(N)ncnc32)C[C@@H]1O | ATP / luminescence | >8.4 µM |
| Brc1cccc(Nc2nnc(Cc3ccccn3)s2)c1 | MTT | 74 µM |
| Cc1cn([C@H]2C[C@H](N=[N+]=[N-])[C@@H](CO)O2)c(=O)[nH]c1=O | ATP / luminescence | >8.4 µM |
| Cc1ccc(NC(=S)NNC(=O)Cc2ccccn2)cc1Cl | MTT | >100 µM |
| CCc1c(Cc2cc(OC)cc(OC)c2)n(COCCOc2ccccc2)c(=O)[nH]c1=O | MTT | 41 µM |
| CCCCCCCCCCCCCCCCCCCCCCOCCCO[C@@H]1O[C@H](COS(=O)(=O)O)[C@@H](OS(=O)(=O)O)[C@H](OS(=O)(=O)O)[C@H]1OS(=O)(=O)O | - | >100 µg/mL |
| COC(=O)N[C@H](C(=O)NN(CC[C@@]1(Cc2ccccc2)C(=O)N(C2c3ccccc3C[C@H]2O)C[C@H]1O)Cc1ccc(-c2ccncc2)cc1)C(C)(C)C | XTT | 31 µM |
| Cc1ccc(O)c(O)c1 | - | 98 µg/mL |
| COc1cc(Cc2[nH]c(=O)[nH]c(=O)c2C(C)C)cc(OC)c1 | MTT | >100 µM |
| O=C(O)Cc1cc(O)ccc1O | - | 101 µg/mL |
| COC(=O)N[C@H](C(=O)NN(CC[C@@]1(Cc2ccccc2)C(=O)N(C2c3ccccc3C[C@H]2O[Si](C)(C)C(C)(C)C)C[C@@H]1O[Si](C)(C)C(C)(C)C)Cc1ccc(Br)cc1)C(C)(C)C | XTT | >50 µM |
| Cn1cc(CN2CCn3c(nc(C(=O)NCc4ccc(F)cc4)c(O)c3=O)C2(C)C)nn1 | microscopy | >1 µM |
| C#C[C@]1(CO)O[C@@H](c2cnn3c(N)ncnc23)C[C@@H]1O | ATP / luminescence | >8.4 µM |
| Cc1cc(C)cc(Cc2c(C(C)C)c(=O)[nH]c(=O)n2COCCOc2ccccc2)c1 | MTT | 35 µM |
| Fc1ccc(-n2c(Cc3ccccn3)n[nH]c2=S)cc1Cl | MTT | >100 µM |

Repeating the final 8 entries:

| smiles | read by | result |
|---|---|---|
| Cc1ccc(O)c(O)c1 | - | 98 µg/mL |
| COc1cc(Cc2[nH]c(=O)[nH]c(=O)c2C(C)C)cc(OC)c1 | MTT | >100 µM |
| O=C(O)Cc1cc(O)ccc1O | - | 101 µg/mL |
| COC(=O)N[C@H](C(=O)NN(CC[C@@]1(Cc2ccccc2)C(=O)N(C2c3ccccc3C[C@H]2O[Si](C)(C)C(C)(C)C)C[C@@H]1O[Si](C)(C)C(C)(C)C)Cc1ccc(Br)cc1)C(C)(C)C | XTT | >50 µM |
| Cn1cc(CN2CCn3c(nc(C(=O)NCc4ccc(F)cc4)c(O)c3=O)C2(C)C)nn1 | microscopy | >1 µM |
| C#C[C@]1(CO)O[C@@H](c2cnn3c(N)ncnc23)C[C@@H]1O | ATP / luminescence | >8.4 µM |
| Cc1cc(C)cc(Cc2c(C(C)C)c(=O)[nH]c(=O)n2COCCOc2ccccc2)c1 | MTT | 35 µM |
| Fc1ccc(-n2c(Cc3ccccn3)n[nH]c2=S)cc1Cl | MTT | >100 µM |